One data set relates to XuaF. Briefly: Enzyme activity of XuaF on AXOS and XOS (HPAEC-PAD). The format is biochemical, Ruminiclostridium cellulolyticum. To be noted: ? = product not identified with certainty. The protocol:
(§1) XuaD, E, F, G (0.01 to 1 µM) were tested with different AXOS and/or XOS at 1 mM with incubation times varying from 5 min to 24 h. Enzymes (10 nM) were incubated at 37 °C for 5 min, kinetic parameters of XuaD were determined with both A^2,3XX and A^2XX, with sugar concentration varying from 0.05 to 8 mM, and XuaE with A^2,3XX with sugar concentration varying from 0.05 to 1 mM (at least 9 concentration point). Substrates and released products were quantified by high performance anion exchange chromatography coupled with pulsed amperometric detection on an ICS-3000 using a PA1 column (Thermo Scientific). Sugars were eluted with the buffers 0.1 M NaOH and 0.5 M sodium acetate + 0.1 M NaOH as the eluants A and B, respectively, using the multistep procedure as follows: isochratic separation (5 min, 95% A + 5% B), separation gradient (8 min, 10–37% B), column wash (2 min, 99% B), and subsequent column equilibration (2.5 min, 95% A + 5% B).

The test system of a further data set is XuaG. Briefly: Enzyme activity of XuaG on AXOS and XOS (HPAEC-PAD). The format is biochemical, Ruminiclostridium cellulolyticum. To be noted: superscript a = transglycosylation was detected. The method, then:
as §1

“Also recorded” adds a separate entry of the source. Marks after values point to notes of the source that are not given here.

As to `OC[C@@H]1O[C@@H](O[C@H]2[C@H](O[C@@H]3CO[C@@H](O[C@@H]4COC(O)[C@H](O)[C@H]4O)[C@H](O)[C@H]3O)OC[C@@H](O)[C@@H]2O)[C@H](O)[C@H]1O` (some centres unmarked) [A^2XX], the “Products released by XuaF” value in the data set on XuaF was “Products: Xyl, A^2X?”. In the case of `OC1OC[C@@H](O[C@@H]2OC[C@@H](O[C@@H]3OC[C@@H](O)[C@H](O)[C@H]3O)[C@H](O)[C@H]2O)[C@H](O)[C@H]1O` (some centres unmarked) [X3, xylotriose], in the data set on XuaG, the “Products released by XuaG” value was “Products: Xyl, X2^a”. Moreover, the “Products released by XuaF” value in the data set on XuaF was “Products: Xyl, X2”. As for `OC1OC[C@@H](O[C@@H]2OC[C@@H](O[C@@H]3OC[C@@H](O[C@@H]4OC[C@@H](O)[C@H](O)[C@H]4O)[C@H](O)[C@H]3O)[C@H](O)[C@H]2O)[C@H](O)[C@H]1O` (some centres unmarked) [X4], the “Products released by XuaG” value in the data set on XuaG was “Products: Xyl, X3, X2^a”. Also, the “Products released by XuaF” value in the data set with XuaF is “Products: Xyl, X3, X2”. As to `OC1OC[C@@H](O[C@@H]2OC[C@@H](O[C@@H]3OC[C@@H](O[C@@H]4OC[C@@H](O[C@@H]5OC[C@@H](O)[C@H](O)[C@H]5O)[C@H](O)[C@H]4O)[C@H](O)[C@H]3O)[C@H](O)[C@H]2O)[C@H](O)[C@H]1O` (some centres unmarked) [X5], in the data set on XuaG, the “Products released by XuaG” value is “Products: Xyl, X4, X3, X2^a”. The “Products released by XuaF” value in the data set on XuaF is “Products: Xyl, X4, X3”. For `OC[C@@H]1O[C@@H](O[C@@H]2[C@@H](O[C@@H]3O[C@@H](CO)[C@H](O)[C@H]3O)[C@H](O[C@@H]3CO[C@@H](O[C@@H]4COC(O)[C@H](O)[C@H]4O)[C@H](O)[C@H]3O)OC[C@H]2O[C@@H]2OC[C@@H](O)[C@H](O)[C@H]2O)[C@H](O)[C@H]1O` (some centres unmarked) [XA^2,3XX], the “Products released by XuaG” value in the data set on XuaG was “xylose and A^2,3XX; also recorded: Products: Xyl, A^2,3XX^a”. The “Products released by XuaF” value in the data set with XuaF is listed as “Products: Xyl, XA^2,3X ?”. Regarding `OC[C@@H]1O[C@@H](O[C@@H]2[C@@H](O)[C@H](O[C@@H]3CO[C@@H](O[C@@H]4COC(O)[C@H](O)[C@H]4O)[C@H](O)[C@H]3O)OC[C@H]2O[C@@H]2OC[C@@H](O)[C@H](O)[C@H]2O)[C@H](O)[C@H]1O` (some centres unmarked) [XA^3XX], the “Products released by XuaG” value with XuaG is recorded as “Products: Xyl, A^3XX?^a”. Further, in the data set on XuaF, the “Products released by XuaF” value is reported as “Products: Xyl, XA^3X ?”.

(Values after article PMC9675976, “Selfish uptake versus extracellular arabinoxylan degradation in the primary degrader Ruminiclostridium cellulolyticum, a new string to its bow” (Biotechnology for Biofuels and Bioproducts, 2022).)
